Compound potency records, mixed from different reports. Data source: NIAID ChemDB in PubChem.

Common to all: whole-cell or culture tests; species: Mycobacterium tuberculosis

ECn is the concentration giving n% inhibition of infection, replication or growth.

structure,mutations,dose,cell line,read by,measure,strain or isolate,value
N#Cc1ccnc(SCc2ccc(F)cc2)c1,,,,,MIC,My 331/88,62 µM
CC[C@@H](CO)NCCN[C@@H](CC)CO,EJMCh6C MmpL3  (G253E),,,visual reading / absorbance,MIC90,H37Rv,7.7 µM
CCOC(=O)c1nc(C2CCCCC2)[nH]c1C1CCCCC1,,,,,MIC,H37Rv,>6.25 µg/mL
Cc1cc2c(c3c1c(=O)c1ccccc1n3C)C=CC(C)(C)O2,,,,,MIC,RMP-R,12.5 µg/mL
COc1cc(OC)nc(NC(=O)NS(=O)(=O)c2ncccc2C(=O)N(C)C)n1,,,,,MIC,T13704,16 µM
CO[C@H]1/C=C/O[C@@]2(C)Oc3c(C)c(O)c4c(O)c(cc(OCC(=O)NNCCO)c4c3C2=O)NC(=O)/C(C)=C\C=C\[C@H](C)[C@H](O)[C@@H](C)[C@@H](O)[C@@H](C)[C@H](OC(C)=O)[C@@H]1C,,,,,EC50,,0.005 µg/mL
O=C(O)Cn1[se]c2ccccc2c1=O,,12.5 µg/mL,,BACTEC,inhibition,H37Rv,59%
NC(=S)c1ccnc(SCc2cccc(Br)c2)c1,,,,,MIC,My 331/88,31 µM
CCCCCOc1ccc(NC(=O)OCCN(C)C)cc1,,,,,MIC,My 331/88,62.5 µM
O=C(Nc1ccc(F)cc1)c1ncccc1O,,,,,MIC,CNCTC MY 331/8,125 µM
NC(=S)c1ccnc(SCc2ccc([N+](=O)[O-])cc2)c1,,,,,MIC,My 331/88,16 µM
CCCN(CCC)N(CC)C(=O)COc1cc2c(O)c3c(O)c(C)c4c(c13)C(=O)[C@@](C)(O/C=C/[C@H](OC)[C@@H](C)[C@@H](OC(C)=O)[C@H](C)[C@H](O)[C@H](C)[C@@H](O)[C@@H](C)/C=C/C=C(/C)C(=O)N2)O4,,,,,EC50,,0.18 µg/mL
Brc1ccc2nc(CCC3CCCCC3)[nH]c2c1,,,,visual reading / absorbance,MIC90,H37Rv,2.44 µM
CCCCN(CCCC)N(CC)C(=O)COc1cc2c(O)c3c(O)c(C)c4c(c13)C(=O)[C@@](C)(O/C=C/[C@H](OC)[C@@H](C)[C@@H](OC(C)=O)[C@H](C)[C@H](O)[C@H](C)[C@@H](O)[C@@H](C)/C=C/C=C(/C)C(=O)N2)O4,,,,,EC50,,0.09 µg/mL
O=C(Nc1ccc(C(F)(F)F)cc1)c1ncccc1O,,,,,MIC,CNCTC MY 331/8,62.5 µM
CCCCCCCOc1cccc(NC(=O)OCCN2CCCCCC2)c1,,,,,MIC,My 331/88,8 µM
NC(=S)c1ccnc(SCc2c(F)cccc2[N+](=O)[O-])c1,,,,,MIC,My 331/88,31 µM
Cc1cn([C@@H]2O[C@H](CO)[C@@H](Br)[C@@H]2O)c(=O)[nH]c1=O,,,,,EC50,H37Ra,100 µg/mL
NNC(=O)c1ccncc1,,,,,MIC,MOS,0.1 µg/mL
COc1ccc2c(c1)[n+]([O-])c(S(=O)(=O)c1ccc(C)cc1)c(N)[n+]2[O-],,,,,MIC,TAC-R,>12.5 µg/mL
NNC(=O)c1ccncc1,Isoniazid-resistant rINH,,,resazurin,MIC,H37Rv,>4 µM
COC(=O)CNC(=O)c1cnc(C2C3CC4CC(C3)CC2C4)[nH]1,,,,,MIC,H37Rv,>6.25 µg/mL
CCCCCCOc1ccccc1NC(=O)OCCN(C)C,,,,,MIC,My 331/88,62.5 µM
CNC(=O)NC1(C(=O)O)CC1C(C)C,,,,resazurin,MIC bound,H37Rv,>6.25 µg/mL
NNC(=O)c1ccncc1,,,,,MIC,M103L,0.03 µg/mL
Nc1ncnc2c1ncn2C1OC(C(O)CO)C(O)C1N,,12.5 µg/mL,,BACTEC,inhibition,H37Rv,6%
CN[C@@H]1[C@H](O[C@H]2[C@H](O[C@H]3[C@H](O)[C@@H](O)[C@H](N=C(N)N)[C@@H](O)[C@@H]3N=C(N)N)O[C@@H](C)[C@]2(O)C=O)O[C@@H](CO)[C@H](O)[C@H]1O,,,,,MIC,666,0.2 µg/mL
COc1cccc(C2CC(c3c(O)c4cc(C)c(C)cc4oc3=O)=NN2c2ccccc2)c1O,,,,agar,MIC90,H37Rv,>6.25 µg/mL
NNC(=O)CCc1cnc(C2CCCCC2)[nH]1,,6.25 µg/mL,,,inhibition,H37Rv,31%
NC(=S)c1ccnc(SCc2cccc(F)c2)c1,,,,,MIC,My 331/88,31 µM
CCCCCCOc1ccccc1NC(=O)OCCN1CCOCC1,,,,,MIC,My 331/88,32 µM
CN[C@@H]1[C@H](O[C@H]2[C@H](O[C@H]3[C@H](O)[C@@H](O)[C@H](N=C(N)N)[C@@H](O)[C@@H]3N=C(N)N)O[C@@H](C)[C@]2(O)C=O)O[C@@H](CO)[C@H](O)[C@H]1O,,,,,MIC,9468 (streptomycin-S),<4 µg/mL
O=C(NCc1cccc(Cl)c1)c1ncccc1O,,,,,MIC,CNCTC MY 331/8,125 µM
CN1CN(c2ccccc2)C2(CCN(CCCC3Cc4ccccc4O3)CC2)C1=O,,12.5 µg/mL,,BACTEC,inhibition,H37Rv,25%
NNC(=O)c1nc(C2CCCCC2)[nH]c1C1CCCCC1,,,,,MIC,H37Rv,>6.25 µg/mL
CO[C@]1([C@@H](Cl)c2ccccc2)C(=O)N(C)/C(=C/c2ccccc2)C(=O)N1C,,,,BACTEC,MIC bound,H37Rv,>12.5 µg/mL
NNC(=O)c1ccncc1,EJMCh4/1 MmpL3 (V285A),,,visual reading / absorbance,MIC90,H37Rv,0.07 µM
O=C(Nc1ccc(Cl)c(Cl)c1)c1ccccc1O,,,,,MIC,CNCTC MY 331/8,8 µM
COC(=O)CCc1cnc[nH]1,,,,,MIC,H37Rv,>6.25 µg/mL
O=C(NCc1ccc(Cl)cc1)c1ncccc1O,,,,,MIC,CNCTC MY 331/8,125 µM
O=c1oc2ccccc2c(O)c1C1=NNC(c2ccc(Cl)cc2Cl)C1,Isoniazid-resistant,,,agar,MIC90,INHR-MTB,>6.25 µg/mL
CCCCCCCCCCOc1ccc(NC(=O)OCCN2CCCCC2)cc1,,,,,MIC,My 331/88,8 µM
CC(C)=CCC(/C=N/N=C(N)N)C(C)C,,,,resazurin,MIC bound,H37Rv,>6.25 µg/mL
O=C(/C=C/c1ccccn1)c1c(O)c2ccccc2oc1=O,Isoniazid-resistant,,,agar,MIC90,INHR-MTB,>6.25 µg/mL
Cc1cc(O)c2c(c1)C(=O)C(c1c(C)cc3c(c1O)C(=O)C1OC1C3=O)=CC2=O,,,,,MIC,CS-R,0.8 µg/mL
O=C(NCc1ccccc1)c1ncccc1O,,,,,MIC,CNCTC MY 331/8,1000 µM
Cc1nn(C(=O)c2ccncc2)c2c1C(c1ccc(Cl)cc1)SC(N)=N2,,6.25 µg/mL,,resazurin,inhibition,H37Rv,-112%
CO[C@H]1/C=C/O[C@@]2(C)Oc3c(C)c(O)c4c(=O)c(c5oc6cc(N7CCN(CC(C)C)CC7)cc(=O)c6nc5c4c3=C2O)NC(=O)/C(C)=C\C=C\[C@H](C)[C@H](O)[C@@H](C)[C@@H](O)[C@@H](C)[C@H](OC(C)=O)[C@@H]1C,,,,,MIC,Kurono,0.002 µg/mL
C[C@@H]1O[C@@H](O[C@H]2CC[C@]3(C=O)[C@H]4CC[C@]5(C)[C@@H](C6=CC(=O)OC6)CC[C@]5(O)[C@@H]4CC[C@]3(O)C2)[C@H](O)[C@H](O)[C@H]1O,,,,BACTEC,MIC bound,H37Rv,>12.5 µg/mL
COc1nc(C)nc(NC(=O)NS(=O)(=O)c2ccccc2Cl)n1,,,,,MIC,T13704,31 µM
CN[C@@H]1[C@H](O[C@H]2[C@H](O[C@H]3[C@H](O)[C@@H](O)[C@H](N=C(N)N)[C@@H](O)[C@@H]3N=C(N)N)O[C@@H](C)[C@]2(O)C=O)O[C@@H](CO)[C@H](O)[C@H]1O,Streptomycin-resistant (rSM),,,resazurin,MIC,H37Rv,>7.9 µM
c1cnc2c(c1)ccc1cccnc12,,,,,MIC,H37Rv,0.8 µg/mL
NC(=S)c1ccnc(SCc2ccc(F)cc2)c1,,,,,MIC,My 331/88,31 µM
Nc1ccc(O)c2c1C(=O)c1c(O)ccc(N)c1C2=O,,,,BACTEC,MIC bound,H37Rv,>12.5 µg/mL
CO[C@H]1/C=C/O[C@@]2(C)Oc3c(C)c(O)c4c(O)c(c(/C=N/N5CCN(C)CC5)c(O)c4c3C2=O)NC(=O)/C(C)=C\C=C\[C@H](C)[C@H](O)[C@@H](C)[C@@H](O)[C@@H](C)[C@H](OC(C)=O)[C@@H]1C,,,,,MIC,M103I,0.007 µg/mL
CC(C)CCCC(C)C1CCC2C3CCC4N(C)C(C)CCC4(C)C3CCC12C,,12.5 µg/mL,,BACTEC,inhibition,H37Rv,-14%
CO[C@H]1/C=C/O[C@@]2(C)Oc3c(C)c(O)c4c(=O)c(c5oc6cc(N7CCN(CC(C)C)CC7)cc(=O)c6nc5c4c3=C2O)NC(=O)/C(C)=C\C=C\[C@H](C)[C@H](O)[C@@H](C)[C@@H](O)[C@@H](C)[C@H](OC(C)=O)[C@@H]1C,,,,,MIC90,6 strains (rifampicin-resistant),≤0.0125 µg/mL
CCCN(CCC)N(CCC)C(=O)COc1cc2c(O)c3c(O)c(C)c4c(c13)C(=O)[C@@](C)(O/C=C/[C@H](OC)[C@@H](C)[C@@H](OC(C)=O)[C@H](C)[C@H](O)[C@H](C)[C@@H](O)[C@@H](C)/C=C/C=C(/C)C(=O)N2)O4,,,,,EC50,,0.19 µg/mL
C[N+](C)(C)C1C2(CCCCC2)NC(=O)C12CCCCC2,,12.5 µg/mL,,BACTEC,inhibition,H37Rv,11%
CCCCCCCCCCOc1ccccc1NC(=O)OCCN1CCOCC1,,,,,MIC,My 331/88,32 µM
COC(=O)CCc1cnc(C2CCCC2)[nH]1,,6.25 µg/mL,,,inhibition,H37Rv,0%
CS(=O)(=O)N=C1C=CC(=NS(C)(=O)=O)C=C1,,12.5 µg/mL,,BACTEC,inhibition,H37Rv,25%
CCCN(C(=O)COc1cc2c(O)c3c(O)c(C)c4c(c13)C(=O)[C@@](C)(O/C=C/[C@H](OC)[C@@H](C)[C@@H](OC(C)=O)[C@H](C)[C@H](O)[C@H](C)[C@@H](O)[C@@H](C)/C=C/C=C(/C)C(=O)N2)O4)N1CCOCC1,,,,,EC50,,0.37 µg/mL
CN(C)c1ccc(N=Nc2nccs2)cc1,,6.25 µg/mL,,resazurin,inhibition,H37Rv,26%
CC[C@H](C)N1CCN(c2cc(=O)c3nc4c(oc3c2)c2c(=O)c3c(O)c(C)c5c(c34)=C(O)[C@@](C)(O/C=C/[C@H](OC)[C@@H](C)[C@@H](OC(C)=O)[C@H](C)[C@H](O)[C@H](C)[C@@H](O)[C@@H](C)/C=C/C=C(/C)C(=O)N2)O5)CC1,,,,,MIC90,16 strains (rifampicin-susceptible),1.56 µg/mL
N=c1c2n[nH]c([C@@H]3O[C@H](CO)[C@@H](O)[C@H]3O)c2ncn1O,,,,BACTEC,MIC bound,H37Rv,>12.5 µg/mL
NC(=O)c1cnccn1,,,,,MIC,Isolate 97-1174,900 µg/mL
CCOc1ccc2ccc3ccc(OCC)nc3c2n1,,6.25 µg/mL,,,inhibition,H37Rv,10%
COC(=O)c1ccccc1S(=O)(=O)NC(=O)Nc1nc(C)cc(C)n1,,,,,MIC,ATCC35801,12 µM
O=C(Nc1ccc([N+](=O)[O-])cc1)c1ccccc1O,,,,,MIC,CNCTC MY 331/8,8 µM
O=C1C=C(Nc2ncccn2)c2ccccc2C1=O,,,VERO,resazurin,MIC,H37Rv,3.13 µg/mL
CCCCN(C(=O)COc1cc2c(O)c3c(O)c(C)c4c(c13)C(=O)[C@@](C)(O/C=C/[C@H](OC)[C@@H](C)[C@@H](OC(C)=O)[C@H](C)[C@H](O)[C@H](C)[C@@H](O)[C@@H](C)/C=C/C=C(/C)C(=O)N2)O4)N(CCC)CCC,,,,,EC50,,0.075 µg/mL
O=c1oc2ccccc2c(O)c1C1=NNC(c2ccccc2-c2ccccn2)C1,,,,agar,MIC90,H37Rv,5.15 µg/mL
CC(C)/C=N/NC(=O)c1nc(C2C3CC4CC(C3)CC2C4)[nH]c1C1C2CC3CC(C2)CC1C3,,6.25 µg/mL,,,inhibition,H37Rv,0%
CCCCCCCCCOc1ccccc1NC(=O)OCCN1CCOCC1,,,,,MIC,My 331/88,32 µM
O=S1OCC#CCOS(=O)OCC#CCO1,,12.5 µg/mL,,BACTEC,inhibition,H37Rv,-19%
O=C(Nc1ccc(Cl)cc1)c1ccccc1O,,,,,MIC,CNCTC MY 331/8,31 µM

Repeating the final 8 entries:

structure	mutations	dose	cell line	read by	measure	strain or isolate	value
O=C(Nc1ccc([N+](=O)[O-])cc1)c1ccccc1O					MIC	CNCTC MY 331/8	8 µM
O=C1C=C(Nc2ncccn2)c2ccccc2C1=O			VERO	resazurin	MIC	H37Rv	3.13 µg/mL
CCCCN(C(=O)COc1cc2c(O)c3c(O)c(C)c4c(c13)C(=O)[C@@](C)(O/C=C/[C@H](OC)[C@@H](C)[C@@H](OC(C)=O)[C@H](C)[C@H](O)[C@H](C)[C@@H](O)[C@@H](C)/C=C/C=C(/C)C(=O)N2)O4)N(CCC)CCC					EC50		0.075 µg/mL
O=c1oc2ccccc2c(O)c1C1=NNC(c2ccccc2-c2ccccn2)C1				agar	MIC90	H37Rv	5.15 µg/mL
CC(C)/C=N/NC(=O)c1nc(C2C3CC4CC(C3)CC2C4)[nH]c1C1C2CC3CC(C2)CC1C3		6.25 µg/mL			inhibition	H37Rv	0%
CCCCCCCCCOc1ccccc1NC(=O)OCCN1CCOCC1					MIC	My 331/88	32 µM
O=S1OCC#CCOS(=O)OCC#CCO1		12.5 µg/mL		BACTEC	inhibition	H37Rv	-19%
O=C(Nc1ccc(Cl)cc1)c1ccccc1O					MIC	CNCTC MY 331/8	31 µM

An empty or dashed field is not shown. Lines come from different laboratories, so protocols vary. Inhibition is in % at the dose shown (toxicity tests: loss of growth or viability). MIC bound comes from a single tested concentration. A number after MIC or MFC names an inhibition level or a share of isolates.